Pooled drug test results. Numbers come from NIAID ChemDB, via PubChem.

Common to all: tests in culture; species: Human cytomegalovirus

An empty or dashed field is not shown. ECn: concentration that inhibits the pathogen or its effect by n%. Conditions beyond the fields shown may differ between rows.

SMILES,endpoint,strain,cell line,method,result
CN1N=C(N)c2cn([C@@H]3O[C@H](CO)[C@@H](O)[C@H]3O)c3nc(N)nc1c23,EC50,-,HFF,plaque count,>100 µM
CCCCCCCCCCCCCCO[C@@H]1O[C@H](COP(=O)(O)C(=O)O)[C@@H](O)[C@H](O)[C@H]1O,EC50,TOWNE,HFF,-,4.2 µM
Nc1nc2c(ncn2COC(CO)CO)c(=O)[nH]1,EC50,DAVID,MRC-5,plaque count,7 µM
Nc1nc2c(ncn2C[C@]2(CO)C[C@H]2CO)c(=O)[nH]1,EC50,AD169,HEL,plaque count,8 µg/mL
Nc1nc(N)c2ncn(OCC(CO)OCP(=O)(O)O)c2n1,EC50,AD169,MRC-5,plaque count,>300 µM
CC[Si]1(C(C)C)O[C@H]2[C@@H](O)[C@H](c3ccccc3)O[C@@H]2CO[Si](C(C)C)(C(C)C)O1,EC50,DAVID,HEL,plaque count,2 µg/mL
Cc1ccc2ncnc(Nc3ccc(Cl)c(Cl)c3)c2c1,EC50,AD169,HFF,plaque count,>3 µM
CCCCCCCCCCCCOCCCOP(=O)(O)CO[C@H](CO)Cn1ccc(N)nc1=O,EC50,AD169,HFF,plaque count,0.01 µM
Nc1nc2c(ncn2COC(CO)CO)c(=O)[nH]1,EC50,AD169,HFF,plaque count,3.2 µM
CCCCCCCCCCCCO[C@@H]1O[C@H](CO)[C@@H](OP(=O)(O)C(=O)O)[C@H](O)[C@H]1O,EC50,TOWNE,HFF,-,60 µM
Nc1ccn(C[C@@H](CO)OCP(=O)(O)O)c(=O)n1,EC90,AD169,HFF,plaque count,3.7 µM
Nc1nc2c(ncn2/C=C2\[C@H](CO)C2(F)F)c(=O)[nH]1,EC50,-,HFF,-,>100 µM
Nc1nc2c(ncn2COC(CO)CO)c(=O)[nH]1,EC90,TOWNE,-,virus yield,1.4 µM
CCCCCCCCCCCCCCCCOCCCOP(=O)(O)CO[C@H](CO)Cn1ccc(N)nc1=O,EC50,AD169,HFF,plaque count,0.0009 µM
CCCCCCCC/C=C\CCCCCCCCO[C@H]1O[C@H](COP(=O)(O)C(=O)O)[C@@H](O)[C@H](O)[C@H]1O,EC50,TOWNE,HFF,-,4.5 µM
Nc1ccn(C[C@@H](CO)OCP(=O)(O)O)c(=O)n1,EC50,DAVIS,HEL,plaque count,0.15 µg/mL
C=CCOc1nc(N)nc2c1ncn2/C=C1/C[C@@H]1CO,EC50,AD169,HFF,plaque count,2.1 µM
O=C(Nc1ccc(NC(=S)Nc2ccc(Cl)c(C(F)(F)F)c2)cc1)c1csnn1,EC50,-,-,-,0.026 µM
CC(C)c1ccc(NC(=O)N2CCC[C@H]2C(=O)N2CC[C@H]3[C@H]2[C@H](C)C(=O)N3C(=O)c2nc3ccccc3s2)cc1,EC50,AD169,VERO,ELISA,5 µM
Nc1nc2c(ncn2COC(CO)CO)c(=O)[nH]1,EC50,WF1,FLOW 2002,plaque count,0.1 µg/mL
CCCCCCCC#Cc1c[nH]c(=O)[nH]c1=O,EC50,AD169,HEL,cytopathic effect,>80 µM
Nc1ncnc2c1ncn2CCCC(O)CF,EC50,AD169,HEL,cytopathic effect,>50 µg/mL
Nc1nc(=O)n([C@@H]2O[C@H](CO)[C@@H](O)[C@@H]2F)cc1I,EC50,WF1,FLOW 2002,plaque count,0.84 µg/mL
CO[C@@H]1[C@H](O)[C@@H](CO)O[C@H]1c1ccccc1,EC50,AD169,HEL,plaque count,>50 µg/mL
OC[C@H]1O[C@@H](n2c(Br)nc3cc(Cl)c(Cl)cc32)[C@H](O)[C@@H]1O,EC50,TOWNE,HFF,plaque count,1.2 µM
CSc1ncnc2c1ncn2[C@@H]1OC2COP(=O)(O)OC2[C@H]1O,MIC,-,-,-,3.2 µg/mL
Nc1nc2c(ncn2COC(CO)CO)c(=O)[nH]1,EC50,TW-087,HFF,plaque count,1.5 µM
CC(=O)OC[C@H]1O[C@@H](c2ccccc2)C[C@@H]1OC(C)=O,EC50,AD169,HEL,plaque count,>100 µg/mL
Nc1nc2c(ncn2/C=C2/CC2(CO)CO)c(=O)[nH]1,EC50,AD169,HFF,plaque count,11.7 µM
CCCCCOc1nc(N)nc2c1ncn2/C=C1/C[C@@H]1CO,EC50,AD169,HFF,plaque count,1.4 µM
Nc1nc2c(ncn2C=C2CC2CO)c(=O)[nH]1,EC50,759rD100,HFF,plaque count,23.2 µM
Nc1nc2c(ncn2CCC(CO)CO)c(=O)[nH]1,EC50,AD169,HEL,plaque count,>50 µg/mL
CCCCCCCC/C=C\CCCCCCCOCCCOP(=O)(O)CO[C@H](CO)Cn1ccc(N)nc1=O,EC50,AD169,HFF,plaque count,0.0015 µM
CCSc1ncnc2c1ncn2[C@@H]1OC2COP(=O)(O)OC2[C@H]1O,MIC,-,-,-,3.2 µg/mL
OC[C@@H]1O[C@@H](n2c(Cl)nc3cc(Cl)c(Cl)cc32)[C@H](O)[C@H]1O,EC50,-,HFF,plaque count,51 µM
Nc1ncnc2c1ncn2C=C1CC1CO,EC50,AD169,HFF,plaque count,1.3 µM
Nc1nc2c(ncn2COC(CO)CCP(=O)([O-])O)c(=O)[nH]1,EC50,C8704,MRC-5,plaque count,15 µg/mL
Nc1nc2c(ncn2COC(CO)CO)c(=O)[nH]1,EC50,DAVIS,HEL,plaque count,1 µg/mL
CCOP(=O)([O-])CCC(CO)OCn1cnc2c(=O)[nH]c(N)nc21,EC50,C8704,MRC-5,plaque count,32 µg/mL
CCOP(=O)(O)CCC(CO)OCn1cnc2c(=O)[nH]c(N)nc21,EC50,C8704 (ganciclovir-resistant),MRC-5,plaque count,84 µg/mL
CN1N=C(N)c2cn([C@@H]3O[C@H](CO)[C@@H](O)[C@H]3O)c3nc(Cl)nc1c23,EC50,-,HFF,plaque count,100 µM
OC[C@H]1O[C@@H](n2c(Br)nc3cc(Cl)c(Cl)cc32)[C@H](O)[C@@H]1O,EC50,1038RB,MRC-5,plaque count,20 µM
CC(=O)NC(CCc1ccc(Cl)c(Cl)c1)c1cccc(O)c(=O)c1,EC50,AD169,HFF,plaque count,0.47 µM
CCCOc1nc(N)nc2c1ncn2/C=C1/C[C@@H]1CO,EC50,TOWNE,HFF,plaque count,0.4 µM
CCCCCC#Cc1cn(S(=O)(=O)c2ccc(C)cc2)c(=O)[nH]c1=O,EC50,DAVIS,HEL,cytopathic effect,51 µM
Nc1ccn(CCCC(O)CF)c(=O)n1,EC50,AD169,HEL,cytopathic effect,15 µg/mL
Nc1nc2c(ncn2COC(CO)CO)c(=O)[nH]1,EC50,MAJOR,WI-38,plaque count,4.8 µM
Nc1[nH]nc2c1c1cc(Cl)c(Cl)cc1n2[C@@H]1O[C@H](CO)[C@@H](O)[C@H]1O,EC50,-,HFF,plaque count,4 µM
Nc1nc2c(ncn2OCCOCP(=O)(O)O)c(=O)[nH]1,EC50,AD169,MRC-5,plaque count,0.07 µM
Cn1cc(C(=O)NCc2ccc(Cl)cc2)c(=O)c2cc(CN3CCOCC3)ccc21,EC90,DAVIS,HFF,plaque count,3 µM
CC(C)c1ccc(O)c(O)c(=O)c1,EC50,AD169,HFF,plaque count,1.3 µM
COc1nc(N)nc2c1ncn2/C=C1/C[C@@H]1CO,EC50,AD169,HFF,plaque count,2 µM
CCCCCCCC(=O)NCC#Cc1cn([C@H]2C[C@H](O)[C@@H](COP(=O)(N[C@@H](C)C(=O)OCc3ccccc3)Oc3ccccc3)O2)c(=O)[nH]c1=O,EC50,AD169,HEL,cytopathic effect,>100 µM
CCCCCCCCCCCCCCCCCOC[C@H](COP1(=O)CO[C@@H](Cn2ccc(N)nc2=O)CO1)OCc1ccccc1,EC50,AD169,HFF,plaque count,0.013 µM
Cc1cc(C)c(OC(=O)c2ccc(Cl)cc2)c(=O)c(C)c1,EC50,AD169,HFF,plaque count,1.94 µM
Nc1ccn([C@H]2O[C@@H](CO)[C@H](O)[C@H]2O)c(=O)n1,EC50,WF1,FLOW 2002,plaque count,>100 µg/mL
Nc1nc2ncn(CCOCP(=O)(O)O)c2c(=O)[nH]1,EC50,DAVIS,HEL,plaque count,1.5 µg/mL
CCCCCCCC#Cc1cn(S(=O)(=O)c2ccc(C)cc2)c(=O)[nH]c1=O,EC50,AD169,HEL,cytopathic effect,>80 µM
Cc1cn(CC[C@H](O)CCO)c(=O)[nH]c1=O,EC50,AD169,HEL,cytopathic effect,>400 µg/mL
CCCCCCCCCCCCCCCCCCCCOCCCOP(=O)(O)CO[C@H](CO)Cn1ccc(N)nc1=O,EC50,AD169,HFF,plaque count,0.034 µM
Nc1nc2c(ncn2COC(CO)CO)c(=O)[nH]1,EC50,RC11,MRC-5,ELISA,14.5 µM
Nc1nc2c(ncn2CC(CO)OCP(=O)(O)O)c(=O)[nH]1,EC50,AD169,HEL,plaque count,1 µg/mL
CO[C@H](CO)[C@@H](O)CCn1cnc2c(=O)[nH]c(N)nc21,EC50,DAVIS,HEL,cytopathic effect,>400 µg/mL
Cn1cc(C(=O)NCc2ccc(Cl)cc2)c(=O)c2cc(CN3CCOCC3)ccc21,EC50,NE,HFF,plaque count,0.2 µM
Nc1ccn(C[C@H]2COP(=O)(O)CO2)c(=O)n1,EC50,AD169,HEL,plaque count,0.4 µg/mL
Nc1n[nH]c(=O)c2c1ccn2[C@@H]1O[C@H](CO)[C@@H](O)[C@H]1O,EC50,TOWNE,-,plaque count,>100 µM
CCCCC#Cc1cn(S(=O)(=O)c2ccc(C)cc2)c(=O)[nH]c1=O,EC50,AD169,HEL,cytopathic effect,>16 µM
CCCCCCCCCCCCCCO[C@H]1O[C@H](COP(=O)(O)C(=O)O)[C@@H](O)[C@H](O)[C@H]1O,EC50,TOWNE,HFF,-,3.1 µM
CN1N=C(N)c2cn([C@@H]3O[C@H](COP(=O)(O)O)[C@@H](O)[C@H]3O)c3ncnc1c23,EC50,-,HFF,plaque count,0.8 µM
Nc1ncnc2c1ncn2/C=C1/CC1(CO)CO,EC50,TOWNE,HFF,plaque count,0.33 µM
COc1cc(OC)c(NC(=S)Nc2ccc(NC(C)=O)cc2)cc1Cl,EC50,16 isolates,-,virus yield,<0.384 µM
OC[C@@H]1O[C@@H](n2c(Br)nc3cc(Cl)c(Cl)cc32)[C@H](O)[C@H]1O,EC50,-,HFF,plaque count,21 µM
Nc1ncnc2c1ncn2CC[C@H](O)CCO,EC50,AD169,HEL,cytopathic effect,>400 µg/mL
Cc1ccc2ncnc(Nc3ccc(Br)cc3)c2c1,EC50,AD169,HFF,plaque count,>3 µM
O[C@@H]1[C@H](O)[C@H](O)CO[C@H]1n1c(Br)nc2cc(Cl)c(Cl)cc21,EC50,2916RA (L397R),MRC-5,plaque count,1.7 µM
CCCCCCCCCCCCCCO[C@H]1O[C@H](CO)[C@@H](O)[C@H](O)[C@H]1O,EC50,TOWNE,HFF,-,89 µM
CCCCCC#Cc1c[nH]c(=O)[nH]c1=O,EC50,DAVIS,HEL,cytopathic effect,>80 µM
Nc1nc2c(ncn2OCC2COP(=O)(O)CO2)c(=O)[nH]1,EC50,AD169,MRC-5,plaque count,14 µM
COc1cc(OC)c(NC(=S)Nc2ccc(NC(=O)c3ccco3)cc2)cc1Cl,EC50,50 isolates,-,plaque count,0.04 µM
Nc1ccn([C@H]2O[C@@H](CO)[C@H](O)[C@@H]2O)c(=O)n1,EC50,WF1,FLOW 2002,plaque count,>100 µg/mL
Nc1ncnc2c1ncn2/C=C1/[C@H](CO)C1(F)F,EC50,-,HFF,-,>100 µM
CCCCCCC#Cc1cn(S(=O)(=O)c2ccc(C)cc2)c(=O)[nH]c1=O,EC50,DAVIS,HEL,cytopathic effect,>16 µM
Nc1ncnc2c1ncn2C=C1CC1CO,EC50,VR6189 (ganciclovir-susceptible),-,plaque count,1.8 µM
Brc1cccc(Nc2ncnc3ccccc23)c1,EC50,AD169,HFF,plaque count,<3 µM
Nc1nc(NC2CC2)c2ncn(C=C3CC3CO)c2n1,EC50,C8704/9-1-4,HFF,plaque count,1.7 µM
Nc1nc2c(ncn2COC(CO)CO)c(=O)[nH]1,EC50,DAVIS,HEL,plaque count,0.62 µg/mL

A second listing of 9 rows from above:

SMILES	endpoint	strain	cell line	method	result
Nc1ccn(C[C@H]2COP(=O)(O)CO2)c(=O)n1	EC50	AD169	HEL	plaque count	0.4 µg/mL
Nc1ccn(C[C@@H](CO)OCP(=O)(O)O)c(=O)n1	EC50	DAVIS	HEL	plaque count	0.15 µg/mL
Nc1nc(NC2CC2)c2ncn(C=C3CC3CO)c2n1	EC50	C8704/9-1-4	HFF	plaque count	1.7 µM
Nc1ncnc2c1ncn2CC[C@H](O)CCO	EC50	AD169	HEL	cytopathic effect	>400 µg/mL
Nc1ncnc2c1ncn2CCCC(O)CF	EC50	AD169	HEL	cytopathic effect	>50 µg/mL
CC(=O)OC[C@H]1O[C@@H](c2ccccc2)C[C@@H]1OC(C)=O	EC50	AD169	HEL	plaque count	>100 µg/mL
CCCCCCCCCCCCCCCCOCCCOP(=O)(O)CO[C@H](CO)Cn1ccc(N)nc1=O	EC50	AD169	HFF	plaque count	0.0009 µM
CCCCC#Cc1cn(S(=O)(=O)c2ccc(C)cc2)c(=O)[nH]c1=O	EC50	AD169	HEL	cytopathic effect	>16 µM
Nc1ncnc2c1ncn2/C=C1/CC1(CO)CO	EC50	TOWNE	HFF	plaque count	0.33 µM